# Percent effect of library compounds

The filed quantity is “Percent Effect” (%). The controls that fix the scale are not given in the record; negative values are as filed. This is part of a subset picked to be rich in strong results. A dash means the value is not listed here; it may have been measured.

Mtb glucose medium: 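Growth of Mycobacterium tuberculosis over 3 days (7H9 medium with glucose and tyloxapol); the read-out is not stated. Compounds at 500 µM. The record gives no direction; compounds that gave an IC50 in retests scored well above the rest, so higher reads as more growth inhibition. Size under these conditions: about 18,000 compounds, about 1,400 of them at 50% or above in at least one test.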
Mtb cholesterol medium: 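Phenotypic screen: M. tuberculosis growth, cholesterol and DPPC medium, 4 days; the read-out is not stated. Tested at 500 µM. The record gives no direction; compounds that gave an IC50 in retests scored well above the rest, so higher reads as more growth inhibition. Size under these conditions: about 18,000 compounds, about 900 of them at 50% or above in at least one test.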

| # | structure | Mtb glucose medium | Mtb cholesterol medium |
|---|---|---|---|
| 1 | `CCc1noc(C)c1C(=O)NCC1CCCO1` (centres unmarked) | 12.1 | - |
| 2 | `CC1CCN(S(=O)(=O)N(C)CC(N)=O)CC1` | - | -16.81 |
| 3 | `Cc1ccc(S(=O)(=O)N2CCOCC2)c2cccnc12` | 0.5797 | - |
| 4 | `O=C(Nc1cccc(CO)n1)Nc1ccccc1Cl` | 61.65 | - |
| 5 | `COc1ccc(C(=O)Nc2ccn(C)n2)cn1` | 15.64 | - |
| 6 | `CC(NC(=O)Nc1ccccn1)C1CCN(C)CC1` (centres unmarked) | - | -9.967 |
| 7 | `Fc1cccnc1NCc1cccc2c1OCCCO2` | - | -3.062 |
| 8 | `N#Cc1ccc(CCO)cc1` | 14.92 | - |
| 9 | `NCc1cc(Oc2ccc(Cl)cc2)ccn1` | -2.565 | -7.693 |
| 10 | `COc1ccc(CNCCSc2nnnn2C)cc1` | 23.3 | 31.98 |
| 11 | `CN(C)C(=O)NCCc1ccc(F)cc1` | - | -0.5082 |
| 12 | `CN(C1CCCCC1)S(=O)(=O)N1CCNC(=O)C1` | 22.27 | - |
| 13 | `Nc1cnccc1N1CCOCC1` | - | -13.06 |
| 14 | `NC(=O)COC(=O)COc1cccc2ccccc12` | 14.87 | - |
| 15 | `CC(C)CNC(=O)N(C)Cc1cnn(C)c1` | - | 9.024 |
| 16 | `CC(C)(C)OC(=O)N1CCN2C(=O)NCC2C1` (centres unmarked) | - | -17.81 |
| 17 | `O=C(NCCO)c1ccc(OCc2cccs2)cc1` | 69.59 | 58.83 |
| 18 | `NCCNC(=O)c1ccncc1` | - | 28.52 |
| 19 | `CN(C)C(CNC(=O)Nc1cccnc1)c1ccco1` (centres unmarked) | - | 6.834 |
| 20 | `Cc1c[nH]c(CN(C)CCC(=O)Nc2cccnc2)n1` | 9.586 | - |
| 21 | `O=C(NCC1CCCO1)c1n[nH]c2c1CCCC2` (centres unmarked) | - | 10.19 |
| 22 | `NC(=O)C1CCN(S(N)(=O)=O)CC1` | 34.99 | - |
| 23 | `O=C(CCN1CCCCCC1=O)NCc1ncc[nH]1` | 12.21 | - |
| 24 | `CCCN(CCC)S(=O)(=O)N1CCC2(CC1)OCCO2` | 58.93 | - |
| 25 | `Nc1ccnn1Cc1ccccn1` | 1.504 | -24.36 |
| 26 | `NS(=O)(=O)c1ncc[nH]1` | - | -7.086 |
| 27 | `FC(F)COCCn1nnc(-c2ccsc2)n1` | 80.77 | 89.64 |
| 28 | `Cn1cc(Br)c(CN)n1` | 1.427 | - |
| 29 | `CC(N)c1ccc(NC(=O)C2CC2)cc1` (centres unmarked) | 5.906 | - |
| 30 | `CC(C)CCN1CC(C(=O)N2CCCC2)CC1=O` (centres unmarked) | 22.49 | - |
| 31 | `CCOCCCNC(=O)CC#N` | 2.671 | - |
| 32 | `O=C(CNc1cncc(Br)c1)N1CCCCC1` | -11.14 | - |
| 33 | `c1ccc(COCc2nc(C3CCCNC3)no2)cc1` (centres unmarked) | 17.66 | 7.416 |
| 34 | `Cc1cnccc1CN(C)C(=O)Cc1ccccn1` | -9.121 | - |
| 35 | `CSc1nnc(CN)n1C` | -4.686 | - |
| 36 | `Cc1ccc(C(=O)NC2CC(C)(C)NC(C)(C)C2)cn1` | 3.153 | - |
| 37 | `COC(=O)c1ccc(CSc2nc(N)cc(O)n2)cc1` | 9.667 | -5.755 |
| 38 | `COCCCNC(=O)CCc1nc(-c2ccsc2)no1` | 16.09 | - |
| 39 | `Cc1ccc(NS(=O)(=O)N(C)C)c(C)c1` | 46.8 | 13.96 |
| 40 | `O=C(c1ccccc1)N1CCN(Cc2ccco2)CC1` | 26.16 | 29.11 |
| 41 | `CC(NC(N)=O)C(=O)NCCc1ccc(Cl)cc1` (centres unmarked) | - | 37.68 |
| 42 | `CCS(=O)(=O)NCCNS(=O)(=O)c1ccc(C)cc1Cl` | 51.52 | 14.13 |
| 43 | `COCCOCC(C)NC(=O)C1(C#N)CCC1` (centres unmarked) | 1.323 | - |
| 44 | `Cc1ccccc1C(=O)N[C@@H]1CN(C)C[C@H]1CN(C)C` | 21.8 | - |
| 45 | `CCN(CC)S(=O)(=O)NCc1cccc(C#N)c1` | 29.59 | - |
| 46 | `Fc1ccc2c(c1)CNCCO2` | 28.34 | 23.42 |
| 47 | `CC1(CN)CCCN1Cc1ccccc1` (centres unmarked) | - | -1.581 |
| 48 | `Cc1cc(C(F)F)nc2sc(C(N)=O)c(N)c12` | -12.43 | - |
| 49 | `CC(c1ccccn1)N(C)C(=O)c1cscn1` (centres unmarked) | -12.83 | - |
| 50 | `COc1ncccc1CNS(=O)(=O)c1cccc(Cl)c1` | 71.16 | 53.16 |
| 51 | `C[C@@H]1CN(C(=O)CCc2ccnn2C)C[C@H](C)O1` | 8.975 | - |
| 52 | `O=C(c1ccc2ncsc2c1)N1CCOCC(CO)C1` (centres unmarked) | 22.25 | - |
| 53 | `NC(C(=O)N1CCOC2(CCC2)C1)c1ccccc1` (centres unmarked) | -16.42 | -4.572 |
| 54 | `Brc1cncc(C2CCCN2)c1` (centres unmarked) | 17.43 | - |
| 55 | `O=C(C1CCC1)N1CCN(S(=O)(=O)c2cccs2)CC1` | 18.91 | - |
| 56 | `O=C(NCC1CCN(C2CC2)C1)Nc1ccccn1` (centres unmarked) | 19.7 | 19.46 |
| 57 | `O=C1CC2(CCSC2)C(=O)N1Cc1ccc(Cl)cn1` (centres unmarked) | -14.12 | - |
| 58 | `CC(=O)Cn1nc(C)c(Br)c1C` | 9.268 | - |
| 59 | `CCOc1ccc2c(c1)C=C(C(=O)NC)CO2` | 61.77 | 58.69 |
| 60 | `Cc1cccc(OCC(O)Cn2ccnc2C)c1` (centres unmarked) | -5.322 | - |
| 61 | `CC(C)Cc1cc(CN)on1` | 5.324 | 16.54 |
| 62 | `CC(=O)c1ccc(C(=O)N(C)CC2CCCOC2)cc1` (centres unmarked) | - | 3.8 |
| 63 | `CC1CN(C(=O)Cc2ccsc2)CCO1` (centres unmarked) | 18.16 | - |
| 64 | `Cc1c[nH]c(CN(C)C(=O)CC2CN(C)CCN2C)n1` (centres unmarked) | -3.066 | - |
| 65 | `Cc1ccc(C2NCCNC2=O)cc1` (centres unmarked) | - | -19.29 |
| 66 | `CCn1cc(CN)cn1` | - | -13.88 |
| 67 | `Cc1cnc(C(=O)Nc2ncccc2O)cn1` | 9.367 | -1.897 |
| 68 | `CCc1ccc(C(=O)NC(C)C(N)=O)o1` (centres unmarked) | 9.16 | - |
| 69 | `CCSc1cc(Cl)ccc1C(=O)NCCC(N)=O` | - | -0.693 |
| 70 | `CN(C(=O)CN)c1ccc(-c2ccccc2)cc1` | 82.28 | 76.43 |
| 71 | `COCCNCc1cn(CCC(N)=O)c2ccccc12` | 2.839 | - |
| 72 | `CCSCC(=O)NCCCc1csc(N)n1` | 2.417 | - |
| 73 | `Cn1cc(C(=O)NCc2ccccc2)cn1` | 40.77 | - |
| 74 | `CN(Cc1ccc(Oc2ccccc2)cc1)C(=O)CN` | 96.77 | 99.1 |
| 75 | `CC(=O)NCCCC(=O)N(C)Cc1nccs1` | - | 0.09079 |
| 76 | `CNC(=O)CSc1nnnn1-c1ccc(C(C)C)cc1` | 74.54 | 69.16 |
| 77 | `CC(=O)c1ccc(NC(=O)N2CC[C@H]3CNC[C@H]32)cc1` | 41.68 | - |
| 78 | `COc1ccc(C(=O)NC2(C#N)CCOCC2)cc1Br` | - | 6.3 |
| 79 | `CN(Cc1ccncc1)C(=O)CN` | 7.392 | -4.35 |
| 80 | `CN(C)C[C@@H]1CN(C(=O)c2ccccc2Cl)C[C@@H]1CO` | - | -10.79 |

Data taken from ChEMBL document CHEMBL3988442, “University of Dundee, Small-Polar-MMV Screening Library” (2021).